# PSTVd loop 6 mutant pool in Nicotiana benthamiana

Values reported by Wu et al. 2024 (doi:10.1371/journal.ppat.1012142).

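A pool of all variants was put on leaves of three Nicotiana benthamiana plants. Progeny were sequenced from the inoculated region (day 5), the margin of the inoculated leaf (day 10) and systemic leaves (day 12).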

PSTVd intermediate strain, loop 6: wild type UGACCGCGAG, pool pattern UNNNCGNNNG; upper and lower strand joined, each 5' to 3', the first 5 letters being the upper strand, closing pairs included.

Numbers give reads per thousand; 0 = not seen among the reads, higher = more abundant.
Each value is the mean of three plants.
"Pool" is the share in the plasmid pool used as inoculum, on the same scale.
The inoculated region was read from the minus strand, the other sites from the plus strand.
Wild type was 20.7 per thousand in the pool and the most common sequence in every sample (inoculated region 195, 198, 203; leaf margin 629, 591, 734; systemic leaves 942, 870, 868).

* UAGACGAUAG (pool 0.301): inoculated region 0.106; leaf margin 0.0696; systemic leaves 0
* UCUACGGCUG (pool 0.275): inoculated region 0.0591; leaf margin 0.00773; systemic leaves 0
* UUACCGCCCG (pool 0.170): inoculated region 0.143; leaf margin 0.0169; systemic leaves 0
* UCUUCGUGGG (pool 0.157): inoculated region 0.0903; leaf margin 0.0169; systemic leaves 0
* UCGUCGACGG (pool 0.209): inoculated region 0.0708; leaf margin 0; systemic leaves 0
* UCAGCGGAAG (pool 0.118): inoculated region 0.731; leaf margin 0.0508; systemic leaves 0.0460
* UUAACGACCG (pool 0.183): inoculated region 0.732; leaf margin 0.0851; systemic leaves 0.0452
* UAUGCGCGCG (pool 0.144): inoculated region 0.0655; leaf margin 0.00773; systemic leaves 0
* UAUACGCCCG (pool 0.288): inoculated region 0.114; leaf margin 0; systemic leaves 0
* UCGUCGGUAG (pool 0.392): inoculated region 0.114; leaf margin 0; systemic leaves 0
* UAGUCGAGAG (pool 0.261): inoculated region 0.0952; leaf margin 0; systemic leaves 0
* UCUGCGAUAG (pool 0.288): inoculated region 0.130; leaf margin 0.0619; systemic leaves 0
* UAAUCGCAGG (pool 0.261): inoculated region 0.125; leaf margin 0.00920; systemic leaves 0
* UUACCGCAGG (pool 0.157): inoculated region 0.133; leaf margin 0.0169; systemic leaves 0
* UUCCCGCUCG (pool 0.183): inoculated region 0.125; leaf margin 0.0169; systemic leaves 0
* UUGGCGGAGA (pool 0.0131): inoculated region 0; leaf margin 0; systemic leaves 0
* UAGGCGUCUU (pool 0.0131): inoculated region 0; leaf margin 0; systemic leaves 0
* UGUUCGGGCG (pool 0.196): inoculated region 0.0835; leaf margin 0.00920; systemic leaves 0
* UGCGCGUUUG (pool 0.314): inoculated region 0.0423; leaf margin 0; systemic leaves 0
* UCCGCGGGCG (pool 0.196): inoculated region 0.0656; leaf margin 0.0232; systemic leaves 0
* UAGUCGGCAG (pool 0.170): inoculated region 0.0838; leaf margin 0; systemic leaves 0
* UCGCCGUAAG (pool 0.0915): inoculated region 0.0882; leaf margin 0.00773; systemic leaves 0
* UUAUCGAAUG (pool 0.418): inoculated region 0.0714; leaf margin 0; systemic leaves 0.00684
* UAACCGUAAG (pool 0.0392): inoculated region 0.624; leaf margin 0.0667; systemic leaves 0.0535
* UUUGCGUUCG (pool 0.235): inoculated region 0.0835; leaf margin 0.0184; systemic leaves 0
* UUGUCGGAGA (pool 0.0131): inoculated region 0; leaf margin 0; systemic leaves 0
* UGGUCGUAUG (pool 0.301): inoculated region 0.0836; leaf margin 0.0998; systemic leaves 0
* UGAACGCGAG (pool 0.118): inoculated region 0.204; leaf margin 0.687; systemic leaves 0.743
* UACGCGGAGG (pool 0.0915): inoculated region 0.107; leaf margin 0; systemic leaves 0
* UGGACGAGGG (pool 0.235): inoculated region 0.101; leaf margin 0; systemic leaves 0
* UAGCCGGGGG (pool 0.0523): inoculated region 0.0654; leaf margin 0.0431; systemic leaves 0
* UUACCGAGCG (pool 0.157): inoculated region 0.150; leaf margin 0.00773; systemic leaves 0.0397
* UGAACGUGCG (pool 0.0915): inoculated region 0.180; leaf margin 0.0169; systemic leaves 0
* UCCUCGUUUG (pool 0.327): inoculated region 0.0596; leaf margin 0; systemic leaves 0
* UCUGCGCCGG (pool 0.261): inoculated region 0.0644; leaf margin 0.00773; systemic leaves 0

Extract of 2 entries:

{"sequence": "UUGUCGGAGA", "pool": "0.0131", "inoculated region": 0, "leaf margin": 0, "systemic leaves": 0}
{"sequence": "UUACCGCCCG", "pool": "0.170", "inoculated region": 0.143, "leaf margin": 0.0169, "systemic leaves": 0}

Samples held 36,220 to 57,551 reads, so the smallest values rest on one or two reads.
Sequences that differ at fixed positions probably stem from PCR or sequencing errors, and defective variants can be carried along by functional ones.